Where “and” joins values, the source holds several entries; their conditions need not be identical. Equal values may be shown once.
The compounds below were run on Mtb20SOG. Conditions: Table 2; Hu c-20S IC50 over Mtb20SOG IC50.
Format: biochemical, Mycobacterium tuberculosis

| Structure (SMILES) | Selectivity |
| --- | --- |
| CC(C)c1noc(N[C@@H](CC(=O)N2CCCC[C@@H]2C)C(=O)N[C@@H](C)c2ncc(-c3ccc(F)cc3F)[nH]2)n1 [CF-503477] | 1 |
| CC(C)CCC(=O)N[C@@H](CC(=O)N1CCCC[C@@H]1C)C(=O)N[C@@H](C)c1nc2c(F)cccc2[nH]1 [CF-503225] | 197 and 143 |
| CC(C)CS(=O)(=O)N[C@@H](CC(=O)N1CCCC[C@@H]1C)C(=O)N[C@@H](C)c1ncc(-c2ccc(F)cc2F)[nH]1 [CF-503141] | 13 |
| CC[C@H]1CCCCN1C(=O)C[C@H](Nc1nc2ccccc2o1)C(=O)N[C@@H](C)c1nc2c(F)cccc2[nH]1 [CF-503321] | 17 and 14 |
| CC(C)CCC(=O)N[C@@H](CC(=O)N1CCCC[C@@H]1C)C(=O)N[C@@H](C)c1nc2ccccc2[nH]1 [CF-503149] | 139 and 199 |
| C[C@H](NC(=O)[C@H](CC(=O)N1CCCC[C@@H]1C)NC(=O)CC1CC1)c1ncc(Cc2ccccc2)[nH]1 [CF-503136] | 11 |
| C[C@H](NC(=O)[C@H](CC(=O)N1CCCC[C@@H]1C)NS(=O)(=O)CCC1CC1)c1ncc(-c2ccc(F)cc2F)[nH]1 [CF-503206] | 12 |
| CC(C)CCS(=O)(=O)N[C@@H](CC(=O)N1CCCC[C@@H]1C)C(=O)N[C@@H](C)c1ncc(-c2ccc(F)cc2F)[nH]1 [CF-503157] | 7 and 14 |
| C[C@H](NC(=O)[C@H](CC(=O)N1CCCC1)NC(=O)CCC(C)(C)C)c1ncc(-c2ccc(F)cc2F)[nH]1 [CF-503160] | 13 |
| CC[C@H]1CCCCN1C(=O)C[C@H](NC(=O)[C@@H]1C[C@H]1c1ccccc1)C(=O)N[C@@H](C)c1nc2c(F)cccc2[nH]1 [CF-503382] | 72 |
| C[C@H](NC(=O)[C@H](CC(=O)N1CCC[C@@H]1C)NC(=O)CCC(C)(C)C)c1ncc(-c2ccc(F)cc2F)[nH]1 [CF-503162] | 36 and 44 |
| CC[C@H]1CCCCN1C(=O)C[C@H](NC(=O)CCC(C)C)C(=O)N[C@@H](C)c1ncc(-c2ccc(F)cc2F)[nH]1 [CF-503213] | 136 and 153 |
| Cc1cc(C(=O)N[C@@H](CC(=O)N2CCCCC2C)C(=O)N(C)[C@@H](C)C(=O)NCc2ccc(F)cc2F)no1 (some centres unmarked) | 1.9 |
| CC[C@H]1CCCCN1C(=O)C[C@H](NC(=O)N(C)CC(C)C)C(=O)N[C@@H](C)c1nc2c(F)cccc2[nH]1 [CF-503457] | 2 |
| C[C@H](NC(=O)[C@H](CC(=O)N1CCCC[C@@H]1C)NC(=O)CCC(C)(C)C)c1ncc(-c2ccc(F)cc2F)[nH]1 [CF-503158] | 196 and 386 |
| CC[C@H]1CCCCN1C(=O)C[C@H](Nc1nc(C(C)C)no1)C(=O)NCc1nc2c(F)cccc2[nH]1 [CF-503417] | 3 and 2 |
| Cc1cc(C(=O)N[C@@H](CC(=O)N2CCCC[C@@H]2C)C(=O)N[C@@H](C)c2nc3ccccc3[nH]2)no1 [CF-503148] | 19 |
| CC(C)CCC(=O)N[C@@H](CC(=O)N1CCCC[C@@H]1C)C(=O)NCc1nc2ccccc2[nH]1 [CF-503193] | 27 |
| CC[C@H]1CCCCN1C(=O)C[C@H](NC(=O)N1CCCCC1)C(=O)N[C@@H](C)c1nc2c(F)cccc2[nH]1 [CF-503454] | 4 |
| C[C@H](NC(=O)[C@H](CC(=O)N1CCC[C@@H]1c1ccccc1)Nc1nc2ccccc2o1)c1ncc(-c2ccccc2F)[nH]1 [CF-503242] | 22 and 30 |
| C[C@H](NC(=O)[C@H](CC(=O)N1CCCC[C@@H]1C)NC(=O)CC1CC1)c1ncc(-c2ccc(F)cc2F)[nH]1 [CF-503138] | 70 and 123 |

Same assay, conditions: ratio IC50 (Human Constitutive) / IC50 (Mtb20SOG)

| Structure (SMILES) | Selectivity |
| --- | --- |
| Cc1cc(C(=O)N[C@@H](CC(=O)N2CCCC[C@@H]2C)C(=O)N[C@@H](C)c2ncc(-c3ccc(F)cc3F)[nH]2)no1 [CF-503111] | 175 161 |
| CC[C@H]1CCCCN1C(=O)C[C@H](NC(=O)N(C)Cc1ccccc1)C(=O)N[C@@H](C)c1nc2c(F)cccc2[nH]1 [CF-503451] | 19 20 |
| CC(NC(=O)C(CC(=O)N1CCCCC1C)NC(=O)C1CC2(CCC2)C1)c1nc2c(F)cccc2[nH]1 (centres unmarked) [CF-503459] | 2107 105 |
| CC(C)CCC(=O)N[C@@H](CC(=O)N1CCCC[C@@H]1C(F)(F)F)C(=O)N[C@@H](C)c1nc(-c2ccc(F)cc2F)c[nH]1 [CF-503212] | 14 |
| Cc1cc(C(=O)N[C@@H](CC(=O)N2CCC[C@@H]2c2ccccc2)C(=O)N[C@@H](C)c2ncc(Cc3ccccc3)[nH]2)no1 [CF-503134] | 82 133 |
| Cc1cc(C(=O)N[C@@H](CC(=O)N2CCC[C@@H]2c2ccccc2)C(=O)N[C@@H](C)c2nc3ccccc3[nH]2)no1 [CF-503152] | 60 76 |
| CCC1CCCCN1C(=O)CC(NC(=O)CCC(C)C)C(=O)NC1CCCC1c1ncc(-c2ccc(F)cc2F)[nH]1 (centres unmarked) [CF-503292] | 7.5 2 16 15 |
| Cc1cc(C(=O)N[C@@H](CC(=O)N2CCC[C@@H]2c2ccccc2)C(=O)NC(C)c2nc3ccccc3[nH]2)no1 (some centres unmarked) [CF-503127] | 70 |
| Cc1cc(C(=O)N[C@@H](CC(=O)N2CCCC[C@@H]2C)C(=O)N[C@@H](C)c2ncc(-c3ccccc3F)[nH]2)no1 [CF-503103] | >90 >49 |
| CC[C@H]1CCCCN1C(=O)C[C@H](NC(=O)CCN(C)C)C(=O)N[C@@H](C)c1nc2c(F)cccc2[nH]1 [CF-503356] | 1 |
| CC(C)CCC(=O)N[C@@H](CC(=O)N1CCC[C@@H]1c1ccccc1)C(=O)N[C@@H](C)c1nc2ccccc2[nH]1 [CF-503150] | 357 304 1062 134 179 1190 |
| CCN(CC)C(=O)C[C@H](NC(=O)CCC(C)C)C(=O)N[C@@H](C)c1nc(-c2ccc(F)cc2F)c[nH]1 [CF-503197] | 7 |
| C[C@H](NC(=O)[C@H](CC(=O)N1CCCC1)NC(=O)CCc1ccccc1)C(=O)NCc1cccc2cn[nH]c12 [CF-503390] | 45 31 |
| C[C@H](NC(=O)[C@H](CC(=O)N1CCCC[C@@H]1C)NC(=O)CC1CCOCC1)c1ncc(-c2ccc(F)cc2F)[nH]1 [CF-503139] | 144 69 |
| CC[C@H]1CCCCN1C(=O)C[C@H](Nc1nc(Cc2ccc(F)cc2)no1)C(=O)N[C@@H](C)c1nc2c(F)cccc2[nH]1 [CF-503419] | 5 4 |
| CC[C@H]1CCCCN1C(=O)C[C@H](NC(=O)CCC(C)C)C(=O)N[C@@H](C)c1nc2c(F)cccc2[nH]1 [CF-503223] | 379 308 |
| Cc1ccc(S(=O)(=O)N[C@@H](CC(=O)N2CCCC[C@@H]2C)C(=O)N[C@@H](C)c2ncc(-c3ccc(F)cc3F)[nH]2)cc1 [CF-503143] | 13 |
| CC[C@H]1CCCCN1C(=O)C[C@H](NC(=O)CC1CC1)C(=O)N[C@@H](C)c1nc2c(F)cccc2[nH]1 [CF-503318] | 150 |
| CC[C@H]1CCCCN1C(=O)C[C@H](NC(=O)C1CC(C)(C)C1)C(=O)N[C@@H](C)c1nc2c(F)cccc2[nH]1 [CF-503464] | 441 66 |
| C[C@H](NC(=O)[C@H](CC(=O)N1CCC[C@@H]1C)NC(=O)CCC(C)(C)C)c1nc2ccccc2[nH]1 [CF-503163] | 5 |

Reference: US11203613B2, “Peptidomimetic proteasome inhibitors” (CORNELL UNIVERSITY, priority 2017, dated 2021)
